Measurements from the supplement of paper PMC9931576.
Human monoclonal antibodies against the spike receptor-binding domain (heavy:light variable regions). IC50 against pseudoviruses bearing the spike of naturally observed variants; lower = stronger; >10 µg/ml means not reached at the top dose. No active / inactive call. The stated detection limit is 0.0005 µg/ml; values near or below 0.001 µg/ml lie at the floor of the assay.

B1: BD56-1328 (protein)
chain 1: QVQLVQSGAEVKKPESSVKVSCKASGGTLIDYAVSWVRQAPGQGLEWMGTIVPIVDMSNYAKRFQGRVTITADKSTSTAYMEVRSLRSEDTAVYYCATGGQYCSGGFCSSSYFDSWGQGTLVTVSS
chain 2: EIVLTQSPGTLSLSPGERATLSCRASQSISSAHLAWYQQKPGQAPRLLIYGASNRATGIPDRFSGSGSGTDFTLSISRLAPEDFAVYYCQQYSSSPQRTFGQGTKVEIK
B2: BD56-1330 (protein)
chain 1: EVQLVESGGGLVKPGGSLRLSCAASGFPFSTYGMNWVRQAPGKGLEWVSSISSSSSYISYADSVKGRFTISRDNAKNSLSLHMKSLRADDTAVYYCARDQRAHDEYSSGWLDYYYYNGMDVWGQGTTVTVSS
chain 2: QSVLTQPPSVSAAPGQKVTISCSGSSSNVGSNYVSWYQQLPGTAPKLLIYDDNKRPSVIPDRFSGSKSGTSATLAITGLQTGDEADYYCGAWDSSLTGWVFGGGTKLTVL
B3: BD56-1332 (protein)
chain 1: QVQLVESGGGVVQPGRSLRLSCAASGFTFSSYGMHWVRQAPGKGLEWVAVISYDGSNKHYGDSVKGRFTISRDKPKNTLYLQMNSLRVEDTAVYYCAKEVRGSSAFFSDGFDIWGQGTMVIVSS
chain 2: SYVLTQPPSVSLAPGTTARITCGGDNIGSKSVHWYQQKPGQAPELVVYYDSDRPSGIPERFSGSNSGNTATLTISRVEAGDEADYYCQVWDIGVLFGGGTKLTVL
B4: BD56-1333 (protein)
chain 1: EVQLVESGGDLVQPGGSLRLSCAASGLIVSRNYMSWVRQAPGKGLEWVSVIYSGGSTFYADSVKGRFTISRDNSKNTLYLQMNSLGAEDTAIYYCARDLGVVGGTDVWGQGTTVTVSS
chain 2: EIVMTQSPATLSVSPGERATLSCRASQSVSSNLAWYQQKPGQPPRLLIYGASTRATGIPARFSGSGSGTEFTLTISSLQSEDFALYYCQQYNNWPPMYTFGQGTKLEIK
B5: BD56-1336 (protein)
chain 1: QVQLQESGPGLVKPSETLSLTCTVSGDSVSPYCWSWVRQPPGEGLEWIAYTYYSGSTYYNPSLKNRVSISVDTSKNQFSLKLSSVTAADTAVYYCARLQYWDYWYFDLWGRGTLVTVSS
chain 2: QSALTQPASVSGSPGQSITISCSGTSSDVGGYNLVSWYQHHPGKAPKLLIYEGNKRPSGVSDRFSGSKSGNTASLTISGLQAEDEADYFCCSYAGSNTVVFGGRGGTKLTVL
B6: BD56-1337 (protein)
chain 1: QVQLVESGGGVVQSGRSLRLSCAASGFTFRRYGMHWVRQAPGKGLEWVAMIWYDGTNKYYADSVKGRFTISRDNSKNTLYLQMHSLKAEDTAVYYCARGFSSYDIMTGEEDAFDIWGQGTMVTVSS
chain 2: QSVLTQPPSVSAAPGQKVTISCSGGSSNIGNNYVSWYQQLPGTAPKLLIYDNNKRPSGIPDRFSGSKSGTSATLGITGLQTGDEADYYCGTWDRSLGAVVFGGGTKLTVL
B7: BD56-1338 (protein)
chain 1: EVQLVESGGGLVQPGGSLRLSCAASGFTFSNYDMHWVRQPTGKGLEWVSTIGTYGDTYYLDSVKGRFTISRDNAKKSLYLQVNSLRAGDTAVYYCARGEFSGLISYFDLWGRGTLLTVSS
chain 2: DIQMTQSPSSLSASVGDRVTITCRASQSIGSYLNWYQHKPGIAPKVLIYGASSLQSGVPSRFSGSGSGTDFTLTISSLQPEDFATYYCQQSYVTPPVTFGGGTKVEIK
B8: BD56-1340 (protein)
chain 1: QVQLQESGPGLVKPSQTLSLTCTVSGGSISNGDYYWIWIRQHPGRGLEWIAYIYYSGTTYYNPSLKSRVTISVDTSMNQFSLRLRSMTAADTAVYFCARVARGFYSDRIGSYAFDVWGRGTMVTVSS
chain 2: QSALTQPASVSGSPGQSITISCTGTSSDVGSYDLVSWYQQHPGKAPKLMIYEVIKRPSGISNRFSAAKSGNTASLTISGLQVEDEADYYCCSYVGSDWIFGGGTKLTVL
B9: BD56-1342 (protein)
chain 1: QVQLVQSGAEVKKPGASVKVSCKASGYTFSSYYIHWVRQAPGQGLEWMGIINPSGGTTRHAQRFQGRVAMTRDTSTSTVYMDLSSLTSEDTAVYYCARELVVPAAGYMDVWGKGTTVTVSS
chain 2: SYVLAQPPSVSVAPGKTARITCGGNNIGSKSVHWYQQKPGQAPVLVVYDDSDRPSGIPDRFSGSNSGNTATLTISRVEAGDAADYYCQVWDGSSDHFYVFGTGTKVTVL
B10: BD56-1343 (protein)
chain 1: QVQLVQSGAEVKKPGASVKVSCKASGYTFTAYYIHWIRQAPGQGLEWMGVINPSAGSISYAQNFQGRVTMTGDTSTSTVYMELSSLRSEDTAVYYCARDESLIPAKGWFDPWGQGTPVTVSS
chain 2: EIVLTQSPGTLSLSPGERATLSCRASQSVSKYLAWYQQKPGQAPRLLIYDASNRATGIPARFSGSGSGTDFTLTISSLEPEDFAVYYCQQRGNWPPSYTFGQGTKLEIK
B11: BD56-1382 (protein)
chain 1: EVQLVESGGNLVQPGRSLRLSCAASGFTFDNYAMHWVRQAPGKGLEWVSGISWNSGTIVYADSVKGRFTISRDNAKHSLYLQMNSLRAEDTALYYCAKAQAEKYGYYYYGMDVWGQGTTVTVSS
chain 2: QSVLTQPPSVSGAPGQRVTISCTGGSSNIGTDYDVHWYQQLPGTAPKLLIYGNSNRPSGVPDRFSGSQSGTSASLAITGLQAEDEADYYCQSYDSSLSGWVFGGGTKLTVL
B12: BD56-1391 (protein)
chain 1: QVQLVESGGTVVHPGRSLRLSCAASGFTFSRYSMHWVRQAPGRGLEWMALISYDGNITYYADSMKGRFTISRDNSKNTLHLQMNSLRSEDTAVYFCVMGADTFDHWGQGTLVTVSS
chain 2: SYELTQPPSVSVSPGQTARITCSGDALPKQYGYWYQQKPGQAPILVIYKDNERPSGIPKRFSGSSSGTTVTLTISGVQAEDEADYYCQSADSSDTPHWVFGGGTKLTVL

Experiments:
Assay in all cases: pseudovirus neutralization IC50; higher = weaker neutralization
[1] = target: SARS-CoV-2 Omicron BA.1 spike pseudovirus
Method: (§1)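 Single-round VSV luciferase pseudovirus mixed with antibody dilutions for 1 h and put on Huh-7 cells for about a day; IC50 from the dose curve.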

[2] = target: SARS-CoV-2 Omicron BA.2 spike pseudovirus
Method: as §1

[3] = target: SARS-CoV-2 Omicron BA.2.75 spike pseudovirus
Method: as §1

[4] = target: SARS-CoV-2 Omicron BA.5 spike pseudovirus
Method: as §1

[5] = target: SARS-CoV-2 Omicron BQ.1.1 spike pseudovirus
Method: as §1

[6] = target: SARS-CoV-2 Omicron XBB spike pseudovirus
Method: as §1

[7] = target: SARS-CoV-2 early D614G spike pseudovirus
Method: as §1

Binder	pseudovirus neutralization IC50 [1]	pseudovirus neutralization IC50 [2]	pseudovirus neutralization IC50 [3]	pseudovirus neutralization IC50 [4]	pseudovirus neutralization IC50 [5]	pseudovirus neutralization IC50 [6]	pseudovirus neutralization IC50 [7]
B1	0.00383 µg/mL	0.00104 µg/mL	0.00206 µg/mL	0.147 µg/mL	0.228 µg/mL	> 10 µg/mL	0.247 µg/mL
B2	0.13 µg/mL	0.0818 µg/mL	0.0348 µg/mL	0.13 µg/mL	2.34 µg/mL	1.61 µg/mL	0.0449 µg/mL
B3	> 10 µg/mL	> 10 µg/mL	> 10 µg/mL	> 10 µg/mL	> 10 µg/mL	> 10 µg/mL	> 10 µg/mL
B4	0.00755 µg/mL	0.00111 µg/mL	0.00628 µg/mL	0.00623 µg/mL	0.468 µg/mL	0.472 µg/mL	0.00594 µg/mL
B5	> 10 µg/mL	> 10 µg/mL	> 10 µg/mL	> 10 µg/mL	> 10 µg/mL	> 10 µg/mL	> 10 µg/mL
B6	> 10 µg/mL	> 10 µg/mL	> 10 µg/mL	> 10 µg/mL	> 10 µg/mL	> 10 µg/mL	4.15 µg/mL
B7	> 10 µg/mL	2.68 µg/mL	5.36 µg/mL	4.64 µg/mL	5.23 µg/mL	6.71 µg/mL	1.41 µg/mL
B8	> 10 µg/mL	> 10 µg/mL	> 10 µg/mL	> 10 µg/mL	> 10 µg/mL	> 10 µg/mL	> 10 µg/mL
B9	> 10 µg/mL	> 10 µg/mL	> 10 µg/mL	> 10 µg/mL	> 10 µg/mL	> 10 µg/mL	> 10 µg/mL
B10	0.24 µg/mL	0.738 µg/mL	1.63 µg/mL	0.366 µg/mL	0.42 µg/mL	0.49 µg/mL	> 10 µg/mL
B11	0.00089 µg/mL	0.000599 µg/mL	0.504 µg/mL	0.103 µg/mL	3.85 µg/mL	> 10 µg/mL	> 10 µg/mL
B12	> 10 µg/mL	> 10 µg/mL	> 10 µg/mL	> 10 µg/mL	> 10 µg/mL	> 10 µg/mL	> 10 µg/mL
